{"source": "paper PMC6008883", "about": "“Identification of Peptide Antagonists to Thioredoxin Glutathione Reductase of Schistosoma japonicum” (BioMed Research International, 2018)", "data": [{"test_system": "SjTGR", "test": "Phage display peptide library biopanning with SjTGR", "type": "binding, Schistosoma japonicum", "settings": "58 clones randomly selected from third round of panning, Ph.D.-12 library, elution with 0.5 mM NADPH", "values": [{"sequence": "KHMHWHPPALNT [JIPDys4, M13 phage clone from Ph.D.-12 library displaying peptide …]", "Proportion of sequenced phage clones": "4 / 58"}, {"sequence": "WPHNWWPHFKVK [JIPDys1, M13 phage clone from Ph.D.-12 library displaying peptide …]", "Proportion of sequenced phage clones": "26 / 58"}, {"sequence": "YTMPSLTLYAMG [JIPDys3, M13 phage clone from Ph.D.-12 library displaying peptide …]", "Proportion of sequenced phage clones": "3 / 58"}, {"sequence": "LHAETRSAMHRT [JIPDys2, M13 phage clone from Ph.D.-12 library displaying peptide …]", "Proportion of sequenced phage clones": "2 / 58"}]}]}
